Data as given in article PMC12316933, “Structural basis of broad protection against influenza virus by human antibodies targeting the neuraminidase active site via a recurring motif in CDR H3” (2025).

Molecular target: CO17 B NA (recombinant neuraminidase head of B/Colorado/06/2017, B/Victoria-lineage) (Influenza B virus B/Colorado/06/2017)

For “CO17 B NA (recombinant neuraminidase head of B/Colorado/06/2017, B/Victoria-lineage)”, the stoichiometry N was 4.
